Results of unrelated studies side by side (data: NIAID ChemDB).

Common to all: host cell toxicity; cells: MT-2; read-out: CC50

Blank or dashed fields: not listed here.

SMILES,method,result
CSCC[C@H](N)C(=O)N[C@@H](CC(C)C)C(=O)N[C@@H](Cc1ccccc1)C(=O)N[C@H](C(=O)N[C@@H](Cc1ccccc1)C(=O)N1CCC[C@H]1C(=O)N[C@@H](CC(N)=O)C(=O)O)C(C)C,,57.34 µg/mL
Cc1c(CCO)c(C2CC2)nn1CC(=O)N[C@@H](Cc1ccccc1)C(=O)N(C)c1ccc2ncccc2c1,ATP,>20 µM
Clc1ccc(Nc2nnc(Nc3ccc(Cl)cc3)o2)cc1,MTT,12 µM
COc1nc(N)nc2c1ncn2[C@H]1C=C[C@@H](CO)C1,,>100 µM
COC1CCN(C(=O)[C@H](CC(C)C)NC(=O)[C@@H](N)CCSC)[C@@H]1C(=O)N[C@H](C(=O)N[C@@H](Cc1ccccc1)C(=O)N1CCC[C@H]1C(=O)O)C(C)C,,18.65 µg/mL
CC(=O)COc1cc2c(c(O)c1Br)C(=O)C1C(O)=CC(C)=CC1C2=O,MTT,30 µM
C[Si](C)(CCCSc1ncccn1)O[Si](C)(C)CCCSc1ncccn1,,43 µM
O=C(N[C@H](Cc1cc(F)cc(F)c1)c1ncccc1Br)NS(=O)(=O)c1ccccc1Cl,XTT / absorbance,>100 µM
Cc1nc2sc3c(c2c(-c2ccc4cnn(C)c4c2)c1C(OC(C)(C)C)C(=O)O)CCCC3,,>20 µM
CSCC[C@H](N)C(=O)N[C@@H](CC(C)C)C(=O)N[C@@H](Cc1ccccc1)C(=O)N[C@H](C(=O)N[C@@H](Cc1ccccc1)C(=O)N1CCC[C@H]1C(=O)O)C(C)C,,1.77 µg/mL
C=Cc1c(C(F)(F)F)nn(CC(=O)N[C@@H](Cc2ccccc2)C(=O)N(C)c2ccc3c(c2)OCO3)c1C,ATP,>20 µM
Clc1cccc(Cl)c1Cc1cnc(Nc2c(Cl)cccc2Cl)s1,MTT,63 µM
Cc1nc2sc3c(c2c(-c2cnc4ccoc4c2)c1C(OC(C)(C)C)C(=O)O)CCCC3,,>20 µM
Cc1c(CCO)c(C2CC2)nn1CC(=O)N[C@@H](Cc1ccccc1)C(=O)N(C)c1ccc2c(c1)OC(F)(F)O2,ATP,>20 µM
Cn1nc(NS(C)(=O)=O)c2c(Cl)ccc(-n3c([C@H](Cc4cc(F)cc(F)c4)NC(=O)Cn4nc(C(F)F)c5c4C(F)(F)[C@@H]4C[C@H]54)nc4cc(-c5ccccc5F)ccc4c3=O)c21,XTT,>1 µM
CCCCCCCCCCCCCCCCCCOCCOP(=O)(O)CO[C@H](CO)Cn1ccc(N)nc1=O,flow cytometry,0.02 µM
CCCNc1nc(N)nc2c1ncn2[C@H]1C=C[C@@H](CO)C1,,>100 µM
CC1=CC2C(=O)c3cc(OCC(=O)c4ccccc4)c(Br)c(O)c3C(=O)C2C(O)=C1,MTT,100 µM
CCCCCCCCCCCCCCCCCCOCCOP(=O)(O)CO[C@H](CO)Cn1cnc2c(N)ncnc21,flow cytometry,0.03 µM
COC(=O)Nc1ccc(-n2ccnc2[C@H](Cc2ccccc2)NC(=O)NS(=O)(=O)c2ccc(Cl)cc2)cc1,XTT / absorbance,>100 µM
Cc1nn(CC(=O)N[C@@H](Cc2ccccc2)C(=O)N(C)c2ccc3c(c2)OCO3)c(C)c1CCO,ATP,>20 µM
CCCOc1nc(N)nc2c1ncn2[C@@H]1C=C[C@H](CO)C1,,97.6 µM
Cc1nc2sc3c(c2c(-c2cccc(C#N)c2)c1C(OC(C)(C)C)C(=O)O)CCCC3,,>20 µM
CSCC[C@H](N)C(=O)N[C@@H](CC(C)C)C(=O)N[C@@H](Cc1ccccc1)C(=O)N[C@H](C(=O)N[C@@H](Cc1ccccc1)C(=O)O)C(C)C,,59.04 µg/mL
Cn1nc(NS(C)(=O)=O)c2c(Cl)ccc(-n3c([C@H](Cc4cc(F)cc(F)c4)NC(=O)Cn4ccc(C5CC5)n4)nc4cc(-c5ccccc5F)ccc4c3=O)c21,,>1 µM
CC(C)[C@H](NC(=O)[C@@H](N)Cc1ccccc1)C(=O)N[C@@H](Cc1ccccc1)C(=O)O,,42.96 µg/mL
Cc1nc2sc3c(c2c(-c2ccc(Br)cc2)c1[C@H](OC(C)(C)C)C(=O)O)CCCC3,,>20 µM
CCCCOc1nc(N)nc2c1ncn2[C@H]1C=C[C@@H](CO)C1,,>100 µM
N#C/C=C/c1cc(F)cc(Oc2ccccc2OCCn2ccc(=O)[nH]c2=O)c1,,85 µM
CC(C)C[C@H](N)C(=O)N[C@@H](Cc1ccccc1)C(=O)N[C@H](C(=O)O)C(C)C,,1.58 µg/mL
C[Si](C)(CCCn1ccnc1)O[Si](C)(C)CCCn1ccnc1,,18 µM
N#Cc1ccc(Nc2nnc(Nc3c(Cl)cccc3Cl)o2)cc1,MTT,>100 µM
CCNc1nc(N)nc2c1ncn2[C@H]1C=C[C@@H](CO)C1,,>100 µM
COC1CCN(C(=O)[C@@H](NC(=O)[C@H](Cc2ccccc2)NC(=O)[C@H](CC(C)C)NC(=O)[C@@H](N)CCSC)C(C)C)[C@@H]1C(=O)N1CCC[C@H]1C(=O)O,,29.38 µg/mL
Clc1ccc(Nc2nnc(Nc3c(Cl)cccc3Cl)o2)cc1,MTT,>100 µM
Cc1c(CC(=O)N[C@@H](Cc2ccccc2)C(=O)N(C)c2ccc3c(c2)OCO3)c(C(C)C)nn1CCO,ATP,>20 µM
Cc1ccccc1S(=O)(=O)NC(=O)N[C@@H](Cc1cc(F)cc(F)c1)c1ncccc1-c1ccnc(F)c1C,XTT / absorbance,72 µM
CC(C)C[C@H](NC(=O)[C@@H](N)CC(N)=O)C(=O)N[C@@H](Cc1ccccc1)C(=O)N[C@H](C(=O)N[C@@H](Cc1ccccc1)C(=O)N1CCC[C@H]1C(=O)O)C(C)C,,43.25 µg/mL
CCOC(C(=O)O)c1c(C)nc2sc3c(c2c1-c1ccc2nsnc2c1)CCCC3,,>20 µM
N#Cc1cc(C#N)cc(Oc2cc(Cl)ccc2OCCn2ccc(=O)[nH]c2=O)c1,,77 µM
Clc1cccc(Cl)c1Cc1nnc(Nc2ccncc2)o1,MTT,100 µM
CN(C)c1nc(N)nc2c1ncn2[C@H]1C=C[C@@H](CO)C1,,>100 µM
Clc1ccc(Nc2nnc(Cc3c(Cl)cccc3Cl)o2)c(Cl)c1,MTT,45 µM
Cc1ccc(S(=O)(=O)NC(=O)Cc2c(C3CC3)nn(CC(=O)N[C@@H](Cc3ccccc3)C(=O)N(C)c3ccc4c(c3)OCO4)c2C)cc1,ATP,>20 µM
C[Si](C)(CCCNC(=O)c1ccccc1N)O[Si](C)(C)CCCNC(=O)c1ccccc1N,,24 µM
FC(F)(F)c1cc(Nc2nnc(Cc3c(Cl)cccc3Cl)o2)ccc1Cl,MTT,>100 µM
CCCCCCCCCCCCCCCCCCOCCOP(=O)(O)CO[C@H](CO)Cn1cnc2c(N)nc(N)nc21,flow cytometry,1.9 µM
N#Cc1cc(Cl)cc(Oc2ccc(Cl)cc2OCCn2cc(F)c(=O)[nH]c2=O)c1,,13 µM
C[Si](C)(CCCNC(=O)c1cc(Cl)ccc1N)O[Si](C)(C)CCCNC(=O)c1cc(Cl)ccc1N,,20 µM

The last 4 rows once more:

SMILES,method,result
FC(F)(F)c1cc(Nc2nnc(Cc3c(Cl)cccc3Cl)o2)ccc1Cl,MTT,>100 µM
CCCCCCCCCCCCCCCCCCOCCOP(=O)(O)CO[C@H](CO)Cn1cnc2c(N)nc(N)nc21,flow cytometry,1.9 µM
N#Cc1cc(Cl)cc(Oc2ccc(Cl)cc2OCCn2cc(F)c(=O)[nH]c2=O)c1,,13 µM
C[Si](C)(CCCNC(=O)c1cc(Cl)ccc1N)O[Si](C)(C)CCCNC(=O)c1cc(Cl)ccc1N,,20 µM

CCn: concentration that lowers growth or viability of the cells by n%. Lines come from different laboratories, so protocols vary.